Compound potency records, mixed from different reports. Data source: NIAID ChemDB in PubChem.

Shared fields: target-level tests

ICn: concentration for n% inhibition.

compound | target | tested at | strain | method | agent | read-out | value
O=C(NCc1ccccc1Cl)Nc1cscc1-c1nc(C(=O)O)c(O)c(=O)[nH]1 | HCV polymerase |  |  |  | Hepatitis C virus | IC50 | <25 µM
CC1CCC(C(=O)N(c2cc(-c3ccc(C#N)cc3)sc2C(=O)O)C(C)C)CC1 | NS3 ATPase |  |  |  | Hepatitis C virus | IC50 | <5 µM
O=C(Nc1ccc2[nH]ncc2c1)c1cc(NCc2ccccn2)c(F)cc1F | Reverse transcriptase | 0.1 µg/mL |  |  | Hepatitis B virus | inhibition | 43%
O=C1/C(=C/c2ccc(Cl)cc2)SC(=S)N1Cc1ccccc1 | NS5B polymerase |  |  |  | Hepatitis C virus | IC50 | >30 µM
O=C(O)c1sc(-c2ccccc2)cc1NS(=O)(=O)c1cc(F)ccc1F | NS3 ATPase |  |  |  | Hepatitis C virus | IC50 | <5 µM
O=C(Nc1cc(Cl)cc(Cl)c1)Nc1cccc(-c2nc(C(=O)O)c(O)c(=O)[nH]2)c1 | HCV polymerase |  |  |  | Hepatitis C virus | IC50 | <100 µM
Cc1ccccc1C(=O)N(C)c1cc(-c2ccccc2)sc1C(=O)O | NS3 ATPase |  |  |  | Hepatitis C virus | IC50 | >20 µM
COc1ccc(/C=C2/SC(=S)N(NS(=O)(=O)c3ccccc3)C2=O)cc1OC | NS5B polymerase |  |  |  | Hepatitis C virus | IC50 | >30 µM
Cc1ccccc1S(=O)(=O)Nc1cc(-c2ccc([N+](=O)[O-])cc2)sc1C(=O)O | NS3 ATPase |  |  |  | Hepatitis C virus | IC50 | <5 µM
COc1cccc(S(=O)(=O)NN2C(=O)/C(=C\c3ccc(Cl)c(Cl)c3)SC2=S)c1 | NS5B polymerase |  |  |  | Hepatitis C virus | IC50 | ≤30 µM
CN(C(=O)c1cccs1)c1cc(-c2ccccc2)sc1C(=O)O | NS3 ATPase |  |  |  | Hepatitis C virus | IC50 | 5–20 µM
CS(=O)(=O)c1ccc(C(=O)Nc2ccsc2-c2nc(C(=O)O)c(O)c(=O)[nH]2)cc1 | HCV polymerase |  |  |  | Hepatitis C virus | IC50 | <25 µM
CN1CCNCCC1c1cc(C(=O)Nc2ccc3cn[nH]c3c2)c(F)cc1F | Reverse transcriptase | 0.1 µg/mL |  |  | Hepatitis B virus | inhibition | 33%
C=C[C@@H]1C[C@]1(NC(=O)[C@@H]1C[C@@H](Oc2nccc3ccc(Br)cc23)CN1C(C)=O)C(=O)NS(=O)(=O)C1CC1 | Nonstructural protein 3/4A |  | 1b D168A | FRET | Hepatitis C virus | IC50 | >3 µM
CN1CCN(c2cc(C(=O)Nc3ccc4cn[nH]c4c3)c(F)cc2F)CC1 | Nonstructural protein 5B | 10 µg/mL |  |  | Hepatitis C virus | inhibition | 43%
CC1CCC(C(=O)N(CC2CC[NH2+]CC2)c2cc(-c3ccccc3)sc2C(=O)O)CC1.O=C([O-])C(F)(F)F | NS3 ATPase |  |  |  | Hepatitis C virus | IC50 | <5 µM
O=C(Nc1ccc2[nH]ncc2c1)c1cc(N2CCNCC2)c(F)cc1F | Reverse transcriptase | 0.1 µg/mL |  |  | Hepatitis B virus | inhibition | 36%
O=C(NC(=O)c1sccc1[N+](=O)[O-])Nc1ccsc1-c1nc(C(=O)O)c(O)c(=O)[nH]1 | HCV polymerase |  |  |  | Hepatitis C virus | IC50 | <25 µM
O=C(Nc1ccc2cn[nH]c2c1)c1cc(NCc2ccccn2)c(F)cc1F | Reverse transcriptase | 0.1 µg/mL |  |  | Hepatitis B virus | inhibition | 39%
N=C(N)N1CCC(N(C(=O)c2ccc(Cl)cc2Cl)c2cc(-c3ccccc3)sc2C(=O)O)CC1 | NS3 ATPase |  |  |  | Hepatitis C virus | IC50 | <5 µM
O=C(NCc1ccc(Cl)cc1F)Nc1cscc1-c1nc(C(=O)O)c(O)c(=O)[nH]1 | HCV polymerase |  |  |  | Hepatitis C virus | IC50 | <25 µM
O=C(Nc1ccc2[nH]ncc2c1)c1cc(N2CCC(O)CC2)c(F)cc1F | Reverse transcriptase | 0.01 µg/mL |  |  | Hepatitis B virus | inhibition | 22%
O=C(Cc1ccc(F)c(C(F)(F)F)c1)Nc1ccsc1-c1nc(C(=O)O)c(O)c(=O)[nH]1 | HCV polymerase |  |  |  | Hepatitis C virus | IC50 | <25 µM
NN1C(=O)/C(=C\c2cc(F)c(F)cc2F)SC1=S | NS5B polymerase |  |  |  | Hepatitis C virus | IC50 | ≤30 µM
O=C(Nc1ccsc1-c1nc(C(=O)O)c(O)c(=O)[nH]1)OCc1ccccc1Cl | HCV polymerase |  |  |  | Hepatitis C virus | IC50 | <25 µM
CC1=NCCN1c1cc(C(=O)Nc2ccc3[nH]ncc3c2)c(F)cc1F | Reverse transcriptase | 0.01 µg/mL |  |  | Hepatitis B virus | inhibition | 19%
O=C(Nc1ccc(-c2nc(C(=O)O)c(O)c(=O)[nH]2)cc1)c1cccs1 | HCV polymerase |  |  |  | Hepatitis C virus | IC50 | <100 µM
Cc1cc(S(=O)(=O)Nc2cc(C(C)(C)C)sc2C(=O)O)c(C)cc1Cl | NS3 ATPase |  |  |  | Hepatitis C virus | IC50 | 5–20 µM
O=C(Nc1ccc2[nH]ncc2c1)c1cc(C2CCNCCN2)c(F)cc1F | Nonstructural protein 5B | 10 µg/mL |  |  | Hepatitis C virus | inhibition | 57%
O=C(O)c1nc(-c2ccsc2CO)[nH]c(=O)c1O | HCV polymerase |  |  |  | Hepatitis C virus | IC50 | <25 µM

A second listing of 2 rows from above:

compound	target	tested at	strain	method	agent	read-out	value
O=C(Nc1ccc2[nH]ncc2c1)c1cc(N2CCNCC2)c(F)cc1F	Reverse transcriptase	0.1 µg/mL			Hepatitis B virus	inhibition	36%
O=C(Nc1ccc2[nH]ncc2c1)c1cc(C2CCNCCN2)c(F)cc1F	Nonstructural protein 5B	10 µg/mL			Hepatitis C virus	inhibition	57%

Neighbouring rows are from separate reports. Blank or dashed fields: not listed here. Two numbers with a dash give a range or band. Percent inhibition refers to the dose given; in toxicity tests it is the harm to the cells.